Consider four compounds from PMC7004148, “Flexible Fragment Growing Boosts Potency of Quorum‐Sensing Inhibitors against Pseudomonas aeruginosa Virulence” (Chemmedchem, 2019).

The test system of the data set is pyocyanin in P. aeruginosa PA14. The experiment in a line: Pyocyanin assay in P. aeruginosa PA14 cultures. It counts as cell-based, Pseudomonas aeruginosa PA14. The note with it: PEI=pIC50/MW. The procedure:
6. Effects in P. aeruginosa
Pyocyanin Assay. The inhibition of virulence factor pyocyanin was measured as described previously[26] following a procedure established by Essar et al.[28] Briefly, Pseudomonas aeruginosa PA14 cultures were grown in the presence of inhibitors or DMSO as control for 16 h. Pyocyanin was determined photometrically after extraction of the cultures with chloroform and re-extraction with 0.2 M HCl. Protonated red colored pyocyanin was determined by measuring OD520 and normalizing to OD600. None of the compound impaired bacterial viability as observed by the OD600 parameter. Inhibition values were expressed in relation to the DMSO control. Each value is the mean of at least two independent experiments with n=3.
The given IC50 values represent the mean of at least two experiments using at least five different concentrations. Curve fitting was performed using the log (inhibitor) vs response model with constrained bottom = 0 and top =100 (GraphPad Prism 5.0).
Figure S4: Inhibition of virulence factor pyocyanin was evaluated in the clinical isolate PA14.
Representative dose-response curves a) compound 11 b) compound 20. Black dotes (•) represent the reduction of pyocyanin in presents of a given compound concentration relative to DMSO control (= 0 %). The continuous black line is the none -linear regression analysis to […]
(1 picture or pasted object on this page, not shown here)
With `Nc1cc(NCc2ccc(F)cc2)cc(C(F)(F)F)n1` [Compound 11], the “PEI (Pyocyanin Efficiency Index)” value is reported as 0.0140.
Consider `Nc1cc(NCCCc2ccc(F)cc2)cc(C(F)(F)F)n1` [Compound 20], for which the “PEI (Pyocyanin Efficiency Index)” value is reported as 0.0168.
The value for `O=C(CSc1nc2ccc([N+](=O)[O-])cc2[nH]1)Nc1ccc(Oc2ccccc2)cc1` [Compound R1, reference compound] was 0.0165; that for `CCCCCCCc1[nH]c2ccc([N+](=O)[O-])cc2c(=O)c1C(N)=O` [Compound R2, reference compound] was 0.0172.
